From patent US10076533B2, “Acyclic nucleoside phosphonate diesters” (The Regents of the University of California, priority 2013, dated 2018)

Experiments:
HIV-192US727 = test: Anti-HIV assay in human PBMC, supernatant reverse transcriptase activity; conditions: HIV-192US727, human PBMC
HPV-11 = HPV-11 origin replication in HEK 293 cells, qPCR; assay type: cell-based; conditions: HPV-11, HEK 293 cells
Protocol: An origin-containing plasmid was co-transfected with HPV-11 E1 and E2 protein expression vectors into HEK 293 cells. At 4 hr post-transfection, cells were treated with compound dilutions and the cells were incubated for 48 hr. Replication of the virus origin was detected with DpnI and exonuclease III to remove unreplicated input bacterial plasmid DNA. Remaining replicated DNA was quantified by qPCR. Toxicity was determined by trypan blue exclusion.

MAD-1 strain of JC virus = test: Antiviral effect in JC virus (MAD-1) infected COS7 cells, qPCR
[1] = system: BK virus (Gardner strain); test: Antiviral effect in HFF cells infected with BK virus (Gardner strain), qPCR
[2] = system: Copenhagen strain of vaccinia virus; assay type: cell-based; conditions: HFF cells
[3] = system: AD169 strain of human cytomegalovirus; test: Antiviral effect in HFF cells infected with human cytomegalovirus (AD169)

## CCCCCCCCCCCCCCCCOCCCOP(=O)(COCCn1cnc2c(=O)[nH]c(N)nc21)Oc1ccccc1 (centres unmarked) [Compound 25, phenyl hexadecyloxypropyl 9-(2-phosphonomethoxyethyl)guanine]
HIV-192US727
  Selectivity Index: >125

## CCCCCCCCCCCCCCCCCCOCCOP(=O)(CO[C@H](C)Cn1cnc2c(N)ncnc21)Oc1ccccc1 (stereo partly drawn) [Compound 92, phenyl octadecyloxyethyl 9-(R)-[(2-phosphonomethoxy)propyl]adenine]
HIV-192US727
  Selectivity Index: >4820

## CCCCCCCCCCCCCCCCCCOC[C@H](COP(=O)(CO[C@H](CO)Cn1cnc2c(N)ncnc21)OCc1ccccc1)OCc1ccccc1 (stereo partly drawn) [Compound 230, benzyl 1-O-octadecyl-2-O-benzyl-sn-glyceryl 9-(S)-[(3-hydroxypropyl-2-phosphonomethoxy)propyl]adenine]
HPV-11
  Selectivity Index: >17.9
MAD-1 strain of JC virus
  Selectivity Index: <4.6
[1]
  Selectivity Index: 327
[2]
  Selectivity Index: 1625
HIV-192US727
  Selectivity Index: >5.5
[3]
  Selectivity Index: >124

## CCCCCCCCCCCCCCCCCCOC[C@H](COP(=O)(CO[C@H](CO)Cn1ccc(N)nc1=O)OCc1ccccc1)OCc1ccccc1 (stereo partly drawn) [Compound 231, benzyl 1-O-octadecyl-2-O-benzyl-sn-glyceryl 1-(S)-[3-hydroxy-2-(phosphonomethoxy)propyl]cytosine]
HPV-11
  Selectivity Index: >6.41
MAD-1 strain of JC virus
  Selectivity Index: <3
[1]
  Selectivity Index: >443
[2]
  Selectivity Index: >435
HIV-192US727
  Selectivity Index: >63.3
[3]
  Selectivity Index: >633

Which two values form the index is not stated here.
